This is an account of results in article PMC9785311, “Effect of Structural Differences in Naringenin, Prenylated Naringenin, and Their Derivatives on the Anti-Influenza Virus Activity and Cellular Uptake of Their Flavanones” (Pharmaceuticals, 2022).

This data set concerns MDCK cells. As to the kind of experiment: Cellular uptake by fluorescence microscopy. Particulars: 30 μM compound, phenol red-free medium, 60-360 min, about 20 cells per time point.

Turning to (±)-Naringenin [reference compound], the “Fluorescence intensity (intracellular uptake)” value is “low fluorescence intensity”.
